Patent publication US20160009768

Test system: elongation factor-2 (EF-2)

wild type DT382 (chain not printed)
IVTT Activity: 1 | Relative Activity (IVTT): 1
